Results of unrelated studies side by side (data: NIAID ChemDB).

Shared fields: toxicity to cultured cells; cells: HepG2.117; read by: luminescence; endpoint: CC50

Neighbouring rows are from separate reports. CCn: concentration that lowers growth or viability of the cells by n%.

compound | result
C[C@@H]1Cc2nn3c(c2CN1C(=O)c1ccc(Cl)c(C#N)c1)C(=O)N(Cc1ccc2n[nH]nc2c1)CC3 | >50 µM
C=C[C@H](C)Nc1nc2c(c(=O)n1-c1ccc(C(=O)N(C)C(=O)OCOC(=O)[C@H](N)C(C)C)cc1)C[C@@H](C)N(C(=O)c1ccc(Br)c(C(F)(F)F)c1)C2 | 48.8 µM
C[C@@H]1Cc2nn3c(c2CN1C(=O)c1ccc(Cl)c(C#N)c1)C(=O)N([C@@H](C)c1cccc(NS(C)(=O)=O)c1)CC3 | 19.7 µM
Cc1cc(C)n(-c2nc3c(c(=O)n2-c2ccc(NC[C@H](C)O)nc2)C[C@@H](C)N(C(=O)c2ccc(Br)c(C(F)(F)F)c2)C3)n1 | >0.5 µM
C[C@@H]1Cc2nn3c(c2CN1C(=O)c1ccc(Cl)c(C#N)c1)C(=O)N([C@@H](C)c1cccc(OC(F)(F)F)c1)CC3 | >50 µM
CC(=O)Nc1cccc([C@@H](C)N2CCn3nc4c(c3C2=O)CN(C(=O)c2ccc(Cl)c(Cl)c2)[C@H](C)C4)c1 | 23.1 µM
Cc1cc(C)n(-c2nc3c(c(=O)n2-c2cnc4c(ncn4C)n2)C[C@@H](C)N(C(=O)c2ccc(Br)c(C(F)(F)F)c2)C3)n1 | >0.5 µM
C[C@@H]1Cc2nn3c(c2CN1C(=O)c1ccc(Cl)c(C#N)c1)C(=O)N(Cc1ccc2ncoc2c1)CC3 | >50 µM
CC(=O)Nc1ccc([C@@H](C)N2CCn3nc4c(c3C2=O)CN(C(=O)c2ccc(Cl)c(Cl)c2)[C@H](C)C4)cc1 | >50 µM
Cc1cc(C)n(-c2nc3c(c(=O)n2-c2ccc4c(ncn4C)n2)C[C@@H](C)N(C(=O)c2ccc(Br)c(C(F)(F)F)c2)C3)n1 | >0.5 µM
CNC(=O)c1ccc(-n2c([C@@H]3CCCN3C(C)C)nc3c(c2=O)C[C@@H](C)N(C(=O)c2ccc(Br)c(C(F)(F)F)c2)C3)cc1 | >50 µM
C[C@@H]1Cc2nn3c(c2CN1C(=O)c1ccc(Cl)c(C#N)c1)C(=O)N([C@@H](C)c1ccc2c(c1)OC(F)(F)O2)CC3 | >50 µM
CC(=O)Nc1ccc([C@@H](C)N2CCn3nc4c(c3C2=O)CN(C(=O)c2ccc(Br)c(C#N)c2)[C@H](C)C4)cc1 | >50 µM
C=C[C@H](C)Nc1nc2c(c(=O)n1-c1ccc(C(=O)N(C)C(=O)OCOP(=O)(O)O)cc1)C[C@@H](C)N(C(=O)c1ccc(Br)c(C(F)(F)F)c1)C2 | >50 µM
CC(=O)Nc1cccc([C@H](C)N2CCn3nc4c(c3C2=O)CN(C(=O)c2ccc(Cl)c(Cl)c2)[C@H](C)C4)c1 | 36.2 µM
Cc1cc(C)n(-c2nc3c(c(=O)n2-c2ccc(N4CCN(C)CC4)nc2)C[C@@H](C)N(C(=O)c2ccc(Br)c(C(F)(F)F)c2)C3)n1 | >0.5 µM
C[C@@H]1Cc2nn3c(c2CN1C(=O)c1ccc(Cl)c(C#N)c1)C(=O)N([C@H](C)c1cccc(OC(F)F)c1)CC3 | >50 µM
CC(=O)Nc1cccc([C@H](C)N2CCn3nc4c(c3C2=O)CN(C(=O)c2ccc(Cl)c(C#N)c2)[C@H](C)C4)c1 | >50 µM
Cc1[nH]nc2c1CCn1nc3c(c1-2)CN(C(=O)c1ccc(Cl)c(Cl)c1)CC3 | >50 µg/mL
C=C[C@H](C)Nc1nc2c(c(=O)n1-c1ccc(C(=O)N(C)C(=O)O[C@H](C)OC(=O)[C@@H](N)C(C)C)cc1)C[C@@H](C)N(C(=O)c1ccc(Br)c(C(F)(F)F)c1)C2 | >50 µM
C[C@@H]1Cc2nn3c(c2CN1C(=O)c1ccc(Cl)c(Cl)c1)C(=O)N([C@H](C)c1ccc(NS(C)(=O)=O)cc1)CC3 | 42 µM
Cc1cc(C)n(-c2nc3c(c(=O)n2-c2ccc(OC4CC(O)C4)nc2)C[C@@H](C)N(C(=O)c2ccc(Br)c(C(F)(F)F)c2)C3)n1 | >0.5 µM
C[C@@H]1Cc2nn3c(c2CN1C(=O)c1ccc(Cl)c(C#N)c1)C(=O)N([C@H](C)c1ccnc(C(F)(F)F)c1)CC3 | >50 µM
Cc1cc(C)n(-c2nc3c(c(=O)n2-c2ccc(N4CCN(C(C)C)CC4)nc2)C[C@@H](C)N(C(=O)c2ccc(Br)c(C(F)(F)F)c2)C3)n1 | >0.5 µM
CC(=O)Nc1ccc([C@H](C)N2CCn3nc4c(c3C2=O)CN(C(=O)c2ccc(Br)c(C#N)c2)[C@H](C)C4)cc1 | >50 µM
Cc1cc(C)n(-c2nc3c(c(=O)n2-c2ccc(OC[C@H](C)OP(=O)(O)O)cc2)C[C@@H](C)N(C(=O)c2ccc(Br)c(C(F)(F)F)c2)C3)n1 | >0.5 µM
C[C@@H]1Cc2nn3c(c2CN1C(=O)c1ccc(Cl)c(C#N)c1)C(=O)N([C@@H](C)c1cccc(OC(F)F)c1)CC3 | >50 µM

The first 2 rows once more:

compound,result
C[C@@H]1Cc2nn3c(c2CN1C(=O)c1ccc(Cl)c(C#N)c1)C(=O)N(Cc1ccc2n[nH]nc2c1)CC3,>50 µM
C=C[C@H](C)Nc1nc2c(c(=O)n1-c1ccc(C(=O)N(C)C(=O)OCOC(=O)[C@H](N)C(C)C)cc1)C[C@@H](C)N(C(=O)c1ccc(Br)c(C(F)(F)F)c1)C2,48.8 µM